Compound potency records, mixed from different reports. Data source: NIAID ChemDB in PubChem.

Common to all: growth or infection tests; organism: HIV-1; read-out: fold resistance

Fold resistance: result on the changed form divided by that on wild type. Rows are shuffled and stem from different studies. Blank or dashed fields: not listed here.

smiles | read by | cells | strain or isolate | mutations | value
CC[C@H]1C(=O)Nc2ccc(F)cc2N1C(=O)OC(C)C | cytopathic effect | CEM | B-1 (RT L100V K103R/K Y188H) | RT-L100V K103R/K Y188H | 8
COc1cc(C(F)(F)F)cc(S(=O)(=O)c2cccc(N)c2C#N)c1 | β-galactosidase | HeLa + HELA CD4+ | - | RT-K103N Y181C | >3570
O=c1[nH]cnc2c1ncn2[C@H]1CC[C@@H](CO)O1 | cytopathic effect | MT-4 | AJ-05.93 (HXB2(RT-L74V)) | RT-L74V | 3.38
Nc1nc(NC2CC2)c2ncn([C@H]3C=C[C@@H](CO)C3)c2n1 | luciferase | HeLa | Recombinant | RT-M41L V118I M184V | 2.6
CCCN(C)C(=O)Oc1nsnc1-c1c(Cl)ccc(N)c1Cl | MTT | MAGI | IIIB | RT-Y181C | 84.2
Cc1cc(S(N)(=O)=O)ccc1NC(=O)COc1ccc(Cl)cc1C(=O)c1cc(Cl)cc(C#N)c1 | β-galactosidase | MAGI | NNRTI-resistant (RT P225H) | RT-P225H | 0.58
Cc1cn([C@H]2C[C@H](N=[N+]=[N-])[C@@H](CO)O2)c(=O)[nH]c1=O | cytopathic effect | CEM | C-1 (RT-K101E) | RT-K101E | 1
Cc1ccnc2c1NC(=O)c1cccnc1N2C1CC1 | XTT | CEM + CEM-SS | NL4-3 1 (RT K101E) | RT-K101E | 15
Fc1cccc(F)c1C1SCc2nc3ccccc3n21 | cytopathic effect / XTT | CEM + CEM-SS | IIIB | RT-Y181C | >27
Cc1ccnc2c1NC(=O)c1cccnc1N2C1CC1 | cytopathic effect / XTT | CEM + CEM-SS | NL4-3 (RT V179D) | RT-V179D | 1.5
COC(=O)c1cc2c(c(OC)c1-c1ccc(N(C)C)cc1)OCO2 | fluorescence | C8166 | IIIB | SJP-L-5-resistant | 1240
Cc1cn([C@H]2C[C@H](N=[N+]=[N-])[C@@H](CO)O2)c(=O)[nH]c1=O | cytopathic effect / XTT | CEM + CEM-SS | NL4-3 | RT-K103E | 2
Nc1nc(=O)n([C@@H]2CO[C@H](CO)S2)cc1F | RT activity | CBMC | HXB2D (RT-M184V) | RT-M184V | 2.14
Cc1c(Sc2ccccc2)n(COCCO)c(=O)[nH]c1=O | cytopathic effect / XTT | CEM + CEM-SS | IIIB | RT-Y181C | >6
Cc1cc(C#N)cc(C)c1Oc1nc(Nc2ccc(C#N)cc2)ncc1SCC(=O)N1CCSCC1 | MTT | MT-4 | - | E138K | 1.2
Nc1nc(=O)n([C@@H]2CS[C@H](CO)O2)cc1F | plaque count | HT4 + HT4 LacZ-1 | RTMC(184) (RT D67N K70R M184V T215F K219Q) | RT-D67N K70R M184V T215F K219Q | >5560
Cc1cc(Cl)cc(S(=O)(=O)c2cccc(N)c2C#N)c1 | β-galactosidase | HeLa + HELA CD4+ | - | RT-V106A Y181C | 8.56
Cc1cn([C@H]2C[C@H](N=[N+]=[N-])[C@@H](CO)O2)c(=O)[nH]c1=O | XTT | CEM + CEM-SS | E BPTU-resistant (RT Y181C) | RT-Y181C | 0.6
CCOCn1c(Cc2ccccc2)c(C(C)C)c(=O)[nH]c1=O | cytopathic effect | CEM | Y-1 (RT-K103N) | RT-K103N | 200
CC(C)=CCN1c2cc(Cl)cc3[nH]c(=S)n(c23)C[C@@H]1C | - | MT-4 | - | RT-D67N K70R T215Y K219Q K103N | 8
CCc1c(Sc2ccccn2)n(COCc2ccccc2)c(=O)[nH]c1=O | cytopathic effect / XTT | CEM + CEM-SS | IIIB HEPT-resistant (RT P236L) | RT-P236L | 20
Cc1cn([C@H]2C[C@H](N=[N+]=[N-])[C@@H](CO)O2)c(=O)[nH]c1=O | MTT | MT-4 | - | RES056 | 0.7
CC(C)CN(C[C@@H](O)[C@H](Cc1ccccc1)NC(=O)[C@H](CC(N)=O)NC(=O)c1ccc2ccccc2n1)C(=O)NC(C)(C)C | p24 | MT-4 | NL4-3 | PR-L63P V82T I84V | 7.5
Cc1cc(O)cc(S(=O)(=O)c2cccc(N)c2C#N)c1 | β-galactosidase | HeLa + HELA CD4+ | - | RT-Y181C | 571
O=c1[nH]cnc2c1ncn2[C@H]1CC[C@@H](CO)O1 | β-galactosidase | MAGI (CCR5) + MAGI | HXB2 | RT-K65R | 2.6
COC(=O)N[C@H](C(=O)N[C@@H](Cc1ccccc1)[C@@H](O)CN(Cc1ccc(-c2ccccn2)cc1)NC(=O)[C@@H](NC(=O)OC)C(C)(C)C)C(C)(C)C | p24 / luminescence | MT-4 | NL4-3 | L10F K20T D30N K45I A71V V77I | 4
CC(C)OC(=O)OCOP(=O)(CO[C@H](C)Cn1cnc2c(N)ncnc21)OCOC(=O)OC(C)C | p24 | MT-2 | JF4A ddC-resistant (RT T69D) | RT-T69D | 0.189
Cc1cn([C@H]2C[C@H](N=[N+]=[N-])[C@@H](CO)O2)c(=O)[nH]c1=O | - | PBMC | RUD (RT-A98G) | RT-A98G | 1
O=c1[nH]cnc2c1ncn2[C@H]1CC[C@@H](CO)O1 | plaque count | HELA-CD4+ | JF8(RT-D67N T69D) | RT-D67N T69D | 1
CCN[C@H]1CO[C@@H]2OCC[C@H](OC(=O)N[C@@H](Cc3ccccc3)[C@H](O)CN(CC(C)C)S(=O)(=O)c3ccc4nc(NC5CC5)sc4c3)[C@@H]21 | p24 / luminescence | MT-4 | NL4-3 | L10I I54V K20R L24I V32I L33F M36I M46I I54M L63P K70Q V82I I84V L89M | 19
Nc1ccn([C@H]2C=C[C@@H](CO)O2)c(=O)n1 | plaque count | CD4+HELA + HeLa | HXB2 FTC-P5 (RT V75T) | RT-V75T | 3.33
CN[C@H]1CO[C@@H]2OCC[C@H](OC(=O)N[C@@H](Cc3cccc(OC)c3)[C@H](O)CN(CC(C)C)S(=O)(=O)c3ccc4nc(NC(C)C)sc4c3)[C@@H]21 | p24 / luminescence | MT-4 | NL4-3 | L10F V32I L33F M46L I54M A71V | 1.2
Cc1ccc(S(=O)(=O)N(CC(C)C)C[C@@H](O)[C@H](Cc2ccccc2)NC(=O)O[C@H]2CO[C@H]3OCC[C@H]32)cc1 | p24 / ELISA | MT-2 | IIIB | L441P | 1.2
CC(C)Nc1cccnc1N1CCN(C(=O)c2cc3cc(NS(C)(=O)=O)ccc3[nH]2)CC1 | cytopathic effect | MT-4 | BI-12.96 (HXB2(RT-A62V S68G T69D V75I F77L F116Y Q151M)) | RT-A62V S68G T69D V75I F77L F116Y Q151M | 5
Cc1cn([C@H]2C[C@H](N=[N+]=[N-])[C@@H](CO)O2)c(=O)[nH]c1=O | luciferase | HeLa | Recombinant | RT-M41L V118I M184V | 0.4
Cc1cn([C@H]2C=C[C@@H](CO)O2)c(=O)[nH]c1=O | β-galactosidase | MAGI (CCR5) + MAGI | HXB2 | RT-Y181C | 0.68
CCOP(=O)(COc1ccc(C[C@H](NC(=O)O[C@H]2CO[C@H]3OCC[C@H]32)[C@H](O)CN(CC(C)C)S(=O)(=O)c2ccc(OC)cc2)cc1)OCC | p24 / ELISA | MT-2 | IIIB | K112M K113E V128I M200I H219P | 3.6
CC(C)(C)NC(=O)[C@@H]1C[C@@H]2CCCC[C@@H]2CN1C[C@@H](O)[C@H](Cc1ccccc1)NC(=O)[C@H](CC(N)=O)NC(=O)c1ccc2ccccc2n1 | p24 | MT-4 | NL4-3 | PR-M46I | 1
C/C=C/CSc1cc(NC(=S)c2ccsc2C)ccc1Cl | cytopathic effect / XTT | CEM + CEM-SS | Diphenyl sulfone-resistant (RT-Y181C) | RT-Y181C | >10
Cc1cn([C@H]2C=C[C@@H](CO)O2)c(=O)[nH]c1=O | cytopathic effect | MT-4 | BI-12.96 (HXB2(RT-A62V S68G T69D V75I F77L F116Y Q151M)) | RT-A62V S68G T69D V75I F77L F116Y Q151M | >24
CC(C)CN(C[C@@H](O)[C@H](Cc1ccccc1)NC(=O)O[C@H]1CCOC1)S(=O)(=O)c1ccc(N)cc1 | p24 / luminescence | MT-4 | NL4-3 | L10I I54V K20R L24I V32I L33F M36I M46I I54M L63P K70Q V82I I84V L89M | >27
Nc1ccn([C@H]2CC[C@@H](CO)O2)c(=O)n1 | - | PBMC | BCF07 | RT-A98G V106I Y181C | 0.4
CCCc1cc(=O)oc2c3c(c4c(c12)OC(C)(C)C=C4)O[C@@H](C)[C@H](C)[C@@H]3O | cytopathic effect / XTT | CEM + CEM-SS | UC781-R (RT-Y181C) | RT-Y181C | <0.3
Cc1nnc(SCC(=O)Nc2ccc(S(N)(=O)=O)cc2Cl)n1-c1cccc2cccnc12 | luciferase | HeLa + HeLa-JC53 | NL4-3 | RT-Y188L | 600
CC(C)CN(C[C@@H](O)[C@H](Cc1ccccc1)NC(=O)O[C@H]1CCO[C@H]2OCC[C@H]21)S(=O)(=O)c1ccc2nc(NC3CC3)sc2c1 | p24 / luminescence | MT-4 | NL4-3 | L10I M46L I54V V82A | 5.3
O=c1[nH]cnc2c1ncn2[C@H]1CC[C@@H](CO)O1 | - | PBMC | BCF03 | RT-A98G Y181C | 1.41
Cc1cn([C@H]2C[C@H](N=[N+]=[N-])[C@@H](CO)O2)c(=O)[nH]c1=O | p24 / ELISA | MT-2 | IIIB | K112M K113E V128I | 0.7
Nc1ccn([C@H]2CC[C@@H](CO)O2)c(=O)n1 | plaque count | CD4+HELA + HeLa | HXB2 | RT-V75T T215Y | 15.7
Nc1ccn([C@H]2CC[C@@H](CO)O2)c(=O)n1 | plaque count | HT4 + HT4 LacZ-1 | RTMN(184) (RT M41L M184V T215Y) | RT-M41L M184V T215Y | 6.54
Cc1ccc(-n2c(C)nnc2SCC(=O)Nc2ccccc2Br)cc1 | luciferase | HeLa + HeLa-JC53 | NL4-3 | RT-K103N Y181C | 190
Cc1cc(Br)cc(S(=O)(=O)c2cccc(N)c2C#N)c1 | β-galactosidase | HeLa + HELA CD4+ | - | RT-K103N P225H | 300
Cn1c2ccccc2c2c1cc(C#N)c(=O)n2-c1ccc([N+](=O)[O-])cc1 | luciferase | HeLa | NRTI resistant | RT-M41L D67N V118I M184V L210W T215Y | 4.4
Cc1ccc(NC(=O)CSc2nnc(C)n2-c2cccc3ccccc23)c(Cl)c1 | luciferase | HeLa + HeLa-JC53 | NL4-3 | RT-K103N Y181C | 13
Cc1occc1C(=S)Nc1ccc(Cl)c(/C=N/OC(C)(C)C)c1 | cytopathic effect / XTT | CEM + CEM-SS | NL4-3 (RT V106I) | RT-V106I | 33.75
Cc1ccc(-n2c(C)nnc2SCC(=O)Nc2ccc(S(N)(=O)=O)cc2Cl)c2ccccc12 | luciferase | HeLa + HeLa-JC53 | NL4-3 | RT-Y188L | 100
CCc1c(Sc2ccccn2)n(COCc2ccccc2)c(=O)[nH]c1=O | cytopathic effect / XTT | CEM + CEM-SS | UC82-R (RT-Y181C) | RT-Y181C | 205

8 of the rows above, restated:

smiles | read by | cells | strain or isolate | mutations | value
O=c1[nH]cnc2c1ncn2[C@H]1CC[C@@H](CO)O1 | β-galactosidase | MAGI (CCR5) + MAGI | HXB2 | RT-K65R | 2.6
CC(C)=CCN1c2cc(Cl)cc3[nH]c(=S)n(c23)C[C@@H]1C | - | MT-4 | - | RT-D67N K70R T215Y K219Q K103N | 8
Cc1cc(Br)cc(S(=O)(=O)c2cccc(N)c2C#N)c1 | β-galactosidase | HeLa + HELA CD4+ | - | RT-K103N P225H | 300
CC(C)OC(=O)OCOP(=O)(CO[C@H](C)Cn1cnc2c(N)ncnc21)OCOC(=O)OC(C)C | p24 | MT-2 | JF4A ddC-resistant (RT T69D) | RT-T69D | 0.189
Cc1cn([C@H]2C[C@H](N=[N+]=[N-])[C@@H](CO)O2)c(=O)[nH]c1=O | luciferase | HeLa | Recombinant | RT-M41L V118I M184V | 0.4
Nc1ccn([C@H]2CC[C@@H](CO)O2)c(=O)n1 | plaque count | HT4 + HT4 LacZ-1 | RTMN(184) (RT M41L M184V T215Y) | RT-M41L M184V T215Y | 6.54
CC(C)CN(C[C@@H](O)[C@H](Cc1ccccc1)NC(=O)[C@H](CC(N)=O)NC(=O)c1ccc2ccccc2n1)C(=O)NC(C)(C)C | p24 | MT-4 | NL4-3 | PR-L63P V82T I84V | 7.5
Cc1c(Sc2ccccc2)n(COCCO)c(=O)[nH]c1=O | cytopathic effect / XTT | CEM + CEM-SS | IIIB | RT-Y181C | >6